{
  "source": "patent US20260216172A1",
  "about": "“COMPOUNDS AND METHOD FOR TREATING HIV INFECTION” (The United States of America, as represented by the …, priority 2023, published 2026)",
  "note": "The index is printed as in the source, without its formula.",
  "data": [
    {"system": "HIV-1RF", "experiment": "Anti-HIV cytoprotection evaluation in CEM-SS cells (CPE inhibition, XTT)", "type": "cell-based", "conditions": "therapeutic index (TI50)", "protocol": "(§1) (a) Anti-HIV Cytoprotection Evaluation: Inhibition of virus-induced cytopathic effects (CPE) and cell viability following HIV replication in CEM-SS cells were measured by the use of XTT tetrazolium dye. CEM-SS cells (2.5×10^3 cells per well) were seeded in 96-well U-bottomed tissue culture plates in RPMI medium supplemented with 10% FBS, 2 mM L-glutamine, 100 U/ml penicillin and 100 μg/ml streptomycin. Serially diluted compounds (6 concentrations) and HIV-1RF diluted to a pre-determined titer to yield 85 to 95% cell killing at 6 days post-infection were be added to the plate. AZT was evaluated in parallel as a positive control. Following incubation at 37° C., 5% CO2 for six days, cell viability was measured by XTT staining. The optical density of the cell culture plate will be determined spectrophotometrically at 450 and 650 nm using Softmax Pro 4.6 software. Percent CPE reduction of the virus-infected wells and the percent cell viability of uninfected drug control wells was calculated to define the EC50, TC50 and therapeutic index (TI50) using Microsoft Excel Xlfit4.\nas §1, with “Inhibition” for “(a) Anti-HIV Cytoprotection Evaluation: Inhibition”, “by” for “by the use of”, “wells were” for “wells was”", "values": [
      {"smiles": "CCCC(=O)OCSc1ccccc1C(=O)NCCn1ccc(=O)c2cc(F)ccc21", "note": "[Compound 1, ((2-((2-(6-fluoro-4-oxoquinolin-1(4H)-yl)ethyl)carbamoyl)phenyl)thio)methyl butyrate]", "TI": 100},
      {"smiles": "CCCC(=O)OCSc1ccccc1C(=O)NCCn1ccc(=O)c2cc3c(cc21)OCO3", "note": "[Compound 2, ((2-((2-(8-oxo-[1,3]dioxolo[4,5-g]quinolin-5(8H)-yl)ethyl)carbamoyl)phenyl)thio)methyl butyrate]", "TI": 28},
      {"smiles": "CCCC(=O)OCSc1ccccc1C(=O)NCCn1cc(C(=O)NCc2cccc(C)n2)c(=O)c2cc3c(cc21)OCO3", "note": "[Compound 4, ((2-((2-(7-(((6-methylpyridin-2-yl)methyl)carbamoyl)-8-oxo-[1,3]dioxolo[4,5-g]quinolin-5(8H)-yl)ethyl)carbamoyl)phenyl)thio)methyl butyrate]", "TI": ">208"},
      {"smiles": "CCCC(=O)OCSc1ccccc1C(=O)NCCn1cc(C(=O)NCc2ccccn2)c(=O)c2cc3c(cc21)OCO3", "note": "[Compound 5, ((2-((2-(8-oxo-7-((pyridin-2-ylmethyl)carbamoyl)-[1,3]dioxolo[4,5-g]quinolin-5(8H)-yl)ethyl)carbamoyl)phenyl)thio)methyl butyrate]", "TI": ">185"},
      {"smiles": "CCCC(=O)OCSc1ccccc1C(=O)NCCn1cc(C(=O)NCc2cccc(C)n2)c(=O)c2cc3c(cc21)OC(F)(F)O3", "note": "[Compound 17, ((2-((2-(2,2-difluoro-7-(((6-methylpyridin-2-yl)methyl)carbamoyl)-8-oxo-[1,3]dioxolo[4,5-g]quinolin-5(8H)-yl)ethyl)carbamoyl)phenyl)thio)methyl butyrate]", "TI": ">67.6"}
    ]}
  ]
}
